Anti-infective test results gathered from many reports (values: NIAID ChemDB through PubChem).

All rows: tests in culture; species: Aspergillus fumigatus; endpoint: MIC

Conditions beyond the fields shown may differ between rows. An empty or dashed field is not shown.

structure | strain | method | value
COC(=O)/C=C/c1ccc(OC)cc1 |  | broth dilution / resazurin | 125 µg/mL
COc1ccc([C@H]2SC(C)C(=O)N2c2nc(N3CCOCC3)n[nH]2)cc1OC | 168.95 | broth dilution | 100 µg/mL
COc1ccc(N2C(=O)CC(c3c(C)nn(-c4ccc(C)cc4)c3Cl)C3=C2CC(C)(C)CC3=O)cc1 | MTCC 3008 | broth dilution | 1000 µg/mL
O=C(Nc1c(F)cccc1F)OCCCN1CCN(c2nc3ccccc3s2)CC1 | CF924390 |  | 0.47 µg/mL
CS(=O)(=O)CC(O)(Cn1cncn1)c1ccc(F)cc1F | IFM 40808 |  | >64 µg/mL
Cc1nn(-c2cccc(Cl)c2)c(Cl)c1C1CC(=O)N(c2ccc(F)cc2)C2=C1C(=O)CC(C)(C)C2 | MTCC 3008 | broth dilution | 500 µg/mL
O=c1c(N2CCOCC2)c(N2CCN(S(=O)(=O)Cc3ccccc3)CC2)cnn1-c1ccccc1 | ND158 | broth dilution | 12.5 µg/mL
Cn1ncc(C(c2ccccc2)n2ccnc2)c1-c1ccccc1 |  |  | >200 µM
N#Cc1ccc(Nc2nc(Oc3ncnc4ccccc34)nc(N3CCN(c4ncccn4)CC3)n2)cc1C(F)(F)F | MTCC 343 |  | >100 µg/mL
N=C(N)c1ccc(OCCCCCCOc2ccc(C(=N)N)cc2)cc1 |  | agar diffusion / agar | 35 µg/mL
CCCCCCS(=O)(=O)[C@H](C)[C@](O)(Cn1cncn1)c1ccc(F)cc1F | MTU6001 |  | 6.25 µg/mL
CCCCS(=O)(=O)C(F)(F)[C@](O)(Cn1cncn1)c1ccc(F)cc1F | IFM 40808 |  | 8 µg/mL
N#Cc1ccc(Nc2nc(Oc3ncnc4ccccc34)nc(N3CCCCC3)n2)cc1C(F)(F)F | MTCC 343 |  | >100 µg/mL
CC1S[C@H](c2ccc3c(c2)OCO3)N(c2nc(N3CCOCC3)n[nH]2)C1=O | 168.95 | broth dilution | 100 µg/mL
COc1ccc(N2C(=O)CC(c3c(C)nn(-c4cccc(Cl)c4)c3Cl)C3=C2CCCC3=O)cc1 | MTCC 3008 | broth dilution | 1000 µg/mL
C=C(Cl)CN1C[C@H](OCC23C[C@@H]4[C@H](C)CC[C@H]4C4(C=O)CC2C=C(C(C)C)C34C(=O)O)O[C@H](C)C1 |  |  | 16 µg/mL
CC(N(C)C)C(O)(Cn1cncn1)c1ccc(F)cc1F | KA-01 |  | 50 µg/mL
COC(=O)Cc1csc(NC(=O)Cc2ccc(C)cc2)n1 | NCIM 902 |  | 12.5 µg/mL
CC1S[C@H](c2ccc3c(c2)OCO3)N(c2nc(N3CCN(C)CC3)n[nH]2)C1=O | 168.95 | broth dilution | 10 µg/mL
CCC(C)CC(C)CCCCCCCCC(=O)N[C@H]1C[C@@H](O)[C@H](NCCN)NC(=O)[C@@H]2[C@@H](O)CCN2C(=O)[C@H]([C@H](O)CCN)NC(=O)[C@H]([C@H](O)[C@@H](O)c2ccc(O)cc2)NC(=O)[C@@H]2C[C@@H](O)CN2C(=O)[C@H]([C@@H](C)O)NC1=O | ND256 | broth dilution | 0.03 µg/mL
c1ccc(-c2ccc(C(c3ccccc3)n3ccnc3)cc2)cc1 | ATCC 9142 | broth dilution | 150 µg/mL
CCCCCCCCCCCCC(C)(O)C1CC(=O)NC(CO)C(=O)N[C@H](C)C(=O)NC(CC(=O)O)C(=O)NC(CC(N)=O)C(=O)NC(CC(N)=O)C(=O)NC(CO)C(=O)NC([C@@H](C)O)C(=O)O1 | TIMM0059 |  | 16 µg/mL
Cc1nn(-c2cccc(Cl)c2)c(Cl)c1C1CC(=O)N(c2ccc(F)cc2)C2=C1C(=O)CCC2 | MTCC 3008 | broth dilution | 500 µg/mL
CCCCCS[C@H](C)[C@](O)(Cn1cncn1)c1ccc(F)cc1F | MTU6001 |  | 0.39 µg/mL
c1ccc(C(c2cnn(-c3ccccc3)c2)n2cncn2)cc1 |  |  | >200 µM
C=CCN(CC=C)C(C)C(O)(Cn1cncn1)c1ccc(F)cc1F | KA-01 |  | 1.56 µg/mL
CCC(C)n1ncn(-c2ccc(N3CCN(c4ccc(OC[C@H]5CO[C@](Cn6cncn6)(c6ccc(Cl)cc6Cl)O5)cc4)CC3)cc2)c1=O | Clinical isolates |  | 1 µg/mL
Cc1csc(NC(=O)COc2ccc(C)c(C)c2)n1 | NCIM 902 |  | 12.5 µg/mL
Nc1[nH]c(=O)ncc1F | X807219 |  | 2 µg/mL
Cc1nn(-c2ccccc2)c(Cl)c1C1CC(=O)N(c2ccc(F)cc2)C2=C1C(=O)CC(C)(C)C2 | MTCC 3008 | broth dilution | 1000 µg/mL
CCCS[C@H](C)[C@](O)(Cn1cncn1)c1ccc(F)cc1F | MTU6001 |  | 0.78 µg/mL
CC(C)(C)c1c(C(c2ccccc2)n2cncn2)cnn1-c1ccccc1 |  |  | >200 µM
CCCCCS(=O)(=O)[C@H](C)[C@](O)(Cn1cncn1)c1ccc(F)cc1F | MTU6001 |  | 12.5 µg/mL
CCC(C)n1ncn(-c2ccc(N3CCN(c4ccc(OC[C@H]5CO[C@](Cn6cncn6)(c6ccc(Cl)cc6Cl)O5)cc4)CC3)cc2)c1=O | MF5668 |  | 0.25 µg/mL
C[C@H]1[C@H](O)[C@@H](C)/C=C/C=C/C=C/C=C/C=C/C=C/C=C/[C@H](O[C@@H]2O[C@H](C)[C@@H](O)[C@H](N)[C@@H]2O)C[C@@H]2O[C@](O)(C[C@@H](O)C[C@@H](O)CC[C@H](O)[C@@H](O)C[C@@H](O)CC(=O)O[C@H]1C)C[C@H](O)[C@H]2C(=O)O | ATCC 46645 | broth dilution | 2 µg/mL
Cc1cccc(CC(=O)Nc2nc(C)cs2)c1 | NCIM 902 |  | 12.5 µg/mL
Cc1ccc(C(C)C)cc1 | ATCC 46645 |  | >20 µg/mL
O=C(N/N=C/c1cc([N+](=O)[O-])ccc1O)c1ccc(I)cc1 | G10 |  | 1.6 µg/mL
N#Cc1ccc(Nc2nc(Oc3ncnc4ccccc34)nc(N3CCN(Cc4ccccc4)CC3)n2)cc1C(F)(F)F |  |  | >100 µg/mL
COC(=O)Cc1csc(NC(=O)Cc2cccc(OC)c2)n1 | NCIM 902 |  | 6.25 µg/mL
COc1ccc(N2C(=O)CC(c3c(C)nn(-c4ccccc4)c3Cl)C3=C2CCCC3=O)cc1 | MTCC 3008 | broth dilution | 1000 µg/mL
Cc1c(C(c2ccccc2)n2cncn2)cnn1-c1ccccc1 |  |  | >200 µM
CCCCCCCCCS[C@H](C)[C@](O)(Cn1cncn1)c1ccc(F)cc1F | MTU6001 |  | 0.78 µg/mL
CCS(=O)(=O)C(F)(F)C(O)(Cn1cncn1)c1ccc(F)cc1F | IFM 40808 |  | 8 µg/mL
CCc1c(C(c2ccccc2)n2ccnc2)cnn1-c1ccccc1 |  |  | >200 µM
CN1CCN(c2n[nH]c(N3C(=O)CS[C@@H]3c3ccc4c(c3)OCO4)n2)CC1 | 182.99 | broth dilution | 50 µg/mL

Repeating the first 6 entries:

structure	strain	method	value
COC(=O)/C=C/c1ccc(OC)cc1		broth dilution / resazurin	125 µg/mL
COc1ccc([C@H]2SC(C)C(=O)N2c2nc(N3CCOCC3)n[nH]2)cc1OC	168.95	broth dilution	100 µg/mL
COc1ccc(N2C(=O)CC(c3c(C)nn(-c4ccc(C)cc4)c3Cl)C3=C2CC(C)(C)CC3=O)cc1	MTCC 3008	broth dilution	1000 µg/mL
O=C(Nc1c(F)cccc1F)OCCCN1CCN(c2nc3ccccc3s2)CC1	CF924390		0.47 µg/mL
CS(=O)(=O)CC(O)(Cn1cncn1)c1ccc(F)cc1F	IFM 40808		>64 µg/mL
Cc1nn(-c2cccc(Cl)c2)c(Cl)c1C1CC(=O)N(c2ccc(F)cc2)C2=C1C(=O)CC(C)(C)C2	MTCC 3008	broth dilution	500 µg/mL